Compound potency records, mixed from different reports. Data source: NIAID ChemDB in PubChem.

Common to all: growth or infection tests

Blank or dashed fields: not listed here.

structure,cell line,dose,agent,strain or isolate,measure,result
Nc1nc(=O)c2ncn([C@@H]3C[C@H](O)[C@@H](CO)O3)c2c(=O)[nH]1,HepG2.2.15,-,Japanese encephalitis virus,-,EC50,10–15 µM
CO[C@@H]1[C@H](OP(O)(=S)OC[C@H]2O[C@@H](n3cnc4c(N)ncnc43)C[C@@H]2O)[C@@H](CO)O[C@H]1n1ccc(=O)[nH]c1=O,-,-,Yellow fever virus,-,EC50,>50 µM
O=c1cnn([C@@H]2O[C@H](CO)[C@@H](O)[C@H]2O)c(=O)[nH]1,VERO,-,Yellow fever virus,17D,EC90,1.3 µg/mL
Nc1nc(=O)n2ccn([C@@H]3O[C@H](CO)[C@@H](O)[C@H]3O)c2n1,VERO,-,Yellow fever virus,-,EC50,10 µg/mL
CCCCCCCCCCCCCCCCCCNc1nc(=O)c2ncn([C@@H]3O[C@H](CO)[C@@H](O)[C@H]3O)c2c(=O)[nH]1,HepG2.2.15,-,Japanese encephalitis virus,-,EC50,>500 µM
NC(=O)c1[nH]nc([C@@H]2O[C@H](CO)[C@@H](O)[C@H]2O)c1O,VERO,-,Junin virus,XJCL3,EC50,2 µg/mL
CCCC12CC3CC(CC(N)(C3)C1)C2,MDCK,1 µg/mL,Influenza A virus,H2N2 A/Singapore/1/57,inhibition,100%
CCSc1nsc(-c2ccccc2)c1C#N,HEP-2,-,Poliovirus,Brunhilde (type 1),EC50,0.1 µg/mL
CCNC12CC3CC(C)(CC(C)(C3)C1)C2,MDCK,10 µg/mL,Influenza A virus,H2N2 A/Singapore/1/57,inhibition,100%
Nc1ccn([C@@H]2C=C(CO)[C@@H](O)[C@@H]2O)c(=O)n1,VERO,-,Junin virus,XJCL3,EC50,0.03 µg/mL
Nc1ccn(C[C@@H](CO)OCP(=O)(O)O)c(=O)n1,VERO,-,Camelpox virus,-,EC50,22 µM
NC(=O)c1c[se]c([C@@H]2O[C@H](CO)[C@@H](O)[C@H]2O)n1,VERO,-,Venezuelan equine encephalitis virus,Trinidad donkey,EC50,6.7 µg/mL
Cc1cn([C@H]2C=C[C@@H](CO)O2)c(=O)[nH]c1=O,HFF,-,Cowpox virus,-,EC50,>446 µM
NC(=O)c1ncn([C@@H]2O[C@H](CO)[C@@H](O)[C@H]2O)n1,VERO,-,Venezuelan equine encephalitis virus,-,EC50,>250 µM
CC(=O)c1ncn([C@@H]2CO[C@H](CO)[C@@H](O)[C@H]2O)n1,-,-,Yellow fever virus,-,EC50,>64 µg/mL
CC(C)CCC[C@@H](C)[C@H]1CCC2C3CC[C@H]4C[C@H](OS(=O)(=O)O)[C@@H](OS(=O)(=O)O)C[C@]4(C)C3CC[C@@]21C,VERO,-,Junin virus,IV4454,EC50,>25 µg/mL
CCCCCCCCCCCCCCCCOCCCOP1(=O)CO[C@@H](Cn2ccc(N)nc2=O)CO1,HFF,-,Cowpox virus,Brighton,EC50,2.1 µM
NC(=O)c1ncn([C@H]2C=C[C@@H](CO)O2)n1,-,-,Rift valley fever virus,-,EC50,61 µg/mL
NC(=O)c1nc(F)c[nH]c1=O,MDCK,-,Influenza A virus,H2N2 OKUDA/57,EC50,0.013 µg/mL
N=C(N)c1ncn([C@@H]2O[C@H](CO)[C@@H](O)[C@H]2O)n1,MDCK,11 µg/mL,Influenza A virus,H5N1 A/duck/MN/1525/81,inhibition,90%
NC(=O)c1ncn([C@@H]2O[C@H](CO)[C@@H](O)[C@H]2O)n1,VERO,-,Junin virus,XJCL3,EC50,1 µg/mL
Nc1ncnc2c1ncn2C[C@@H](CO)OCP(=O)(O)O,VERO 76,-,Monkeypox virus,Zaire strain wild-type,EC50,3.7 µM
Nc1ccn(C[C@H]2COP(=O)(O)CO2)c(=O)n1,VERO 76,-,Monkeypox virus,-,EC50,165 µM
CC1=CC2O[C@H]3C[C@H]4OC(=O)/C=C\C=C\C(=O)OCC/C(C)=C/C(=O)OCC2(CC1)[C@@]4(C)[C@]31CO1,VERO,-,Junin virus,-,EC50,0.0012 µg/mL
Nc1ccn(C[C@@H](CO)OCP(=O)(O)O)c(=O)n1,PRK,-,Vaccinia virus,-,EC50,4 µg/mL
COc1c(C)c2c(c(O)c1C/C=C(\C)CCC(=O)O)C(=O)OC2,VERO 76,-,Monkeypox virus,-,EC50,0.8 µM
CNC12CC3CC(C1)CC(C(C)C)(C3)C2,MDCK,8 µg/mL,Influenza A virus,H2N2 A/Singapore/1/57,inhibition,100%
CCCCCCCCN1[C@H](CN)[C@@H](O)[C@H](O)[C@H]1CO,-,-,Japanese encephalitis virus,-,EC50,>10 µM
COc1cc(NC(=O)Nc2cccc(CNC(=O)O[C@H]3CCOC3)c2)ccc1-c1cnco1,VERO,-,Yellow fever virus,-,EC50,>31 µM
Nc1nccc2c1ncn2[C@@H]1C[C@H](CO)[C@@H](O)[C@H]1O,VERO 76,-,Monkeypox virus,Zaire strain wild-type,EC50,4.5 µM
Nc1nccc2c1ncn2[C@@H]1O[C@H](CO)[C@@H](O)[C@H]1O,VERO,-,Junin virus,XJCL3,EC50,2.2 µg/mL
Nc1ncnc2c1ncn2[C@@H]1C=C(CO)[C@@H](O)[C@H]1O,-,-,Junin virus,-,MIC,0.3 µg/mL
Nc1nc(=O)c2ncn(CCOCP(=O)(O)O)c2c(=O)[nH]1,HepG2.2.15,-,Japanese encephalitis virus,-,EC50,>500 µM
NC(=O)c1c[se]c([C@@H]2O[C@H](CO)[C@@H](O)[C@H]2O)n1,VERO,-,Vaccinia virus,-,EC50,3 µg/mL
CCCCCCCCCCCCNc1nc(=O)c2ncn(Cc3ccc(OC)cc3)c2c(=O)[nH]1,HepG2.2.15,-,Japanese encephalitis virus,-,EC50,>500 µM
Nc1ncnc2c1ncn2[C@H]1C[C@@H](O)[C@H](O)[C@@H]1O,E6SM,-,Vaccinia virus,-,EC50,0.7 µg/mL
Nc1ccn(C[C@@H](CO)OCP(=O)(O)O)c(=O)n1,VERO 76,-,Camelpox virus,Somalia wild type,EC50,2.3 µM
Nc1ccn([C@H]2CC[C@@H](CO)O2)c(=O)n1,VERO,-,Cowpox virus,-,EC50,>474 µM
C[C@H]1C[C@@H](n2cnc3c(N)ncnc32)[C@H](O)[C@@H]1O,VERO,-,Junin virus,-,EC50,10 µg/mL
CCCCCCCCCCCCNc1nc(=O)c2ncn([C@@H]3O[C@H](CO)[C@@H](O)[C@H]3O)c2c(=O)[nH]1,HepG2.2.15,-,Japanese encephalitis virus,-,EC50,10 µM
NC(=O)c1ncn(C2OC(CO)CC2O)n1,-,-,Rift valley fever virus,-,EC50,117 µg/mL
O=C1NNC(=O)c2[nH]cnc2N1,HepG2.2.15,-,Japanese encephalitis virus,-,EC50,>500 µM
CC(=O)Nc1cc2c(O)c(N=Nc3ccc(S(N)(=O)=O)cc3)c(S(=O)(=O)O)cc2cc1S(=O)(=O)O,VERO,-,Junin virus,-,EC50,>100 µM
Cc1cn([C@H]2C[C@H](N=[N+]=[N-])[C@@H](CO)O2)c(=O)[nH]c1=O,HFF,-,Cowpox virus,-,EC50,>374 µM
C#Cc1c(C(N)=O)ncn1[C@@H]1O[C@H](CO)[C@@H](O)[C@H]1O,PRK,-,Vaccinia virus,-,EC50,0.2 µg/mL
CC1=C[C@H]2O[C@@H]3C[C@H]4OC(=O)/C=C\C=C\[C@H]([C@@H](C)O)OCC[C@@H](C)[C@H](O)C(=O)OC[C@@]2(CC1)[C@]4(C)[C@]31CO1,VERO,-,Junin virus,-,EC50,0.0031 µg/mL
Nc1ncnc2c1ccn2[C@@H]1O[C@H](CO)[C@H](O)[C@H]1O,VERO,-,Junin virus,XJCL3,EC50,3.1 µg/mL
O=c1[nH]c(=O)n([C@H]2C[C@H](O)[C@@H](CO)O2)cc1C(F)(F)F,PRK,-,Vaccinia virus,-,EC50,0.2 µg/mL
CCCCCCCCCCCCNc1nc(=O)c2[nH]cnc2c(=O)[nH]1,HepG2.2.15,-,Japanese encephalitis virus,-,EC50,>500 µM
Nc1ccn([C@@H]2CS[C@H](CO)O2)c(=O)n1,HFF,-,Cowpox virus,-,EC50,>436 µM
NC(=O)c1ncn([C@@H]2O[C@H](CO)[C@@H](O)[C@H]2O)n1,VERO 76,-,Rift valley fever virus,Zagazig 501,EC50,80 µg/mL
CO[C@@H]1[C@H](O)[C@@H](CO)OC[C@H]1n1cnc(C(C)=O)n1,-,-,Yellow fever virus,-,EC50,64 µg/mL

For reference, 6 entries again:

structure | cell line | dose | agent | strain or isolate | measure | result
Nc1nc(=O)n2ccn([C@@H]3O[C@H](CO)[C@@H](O)[C@H]3O)c2n1 | VERO | - | Yellow fever virus | - | EC50 | 10 µg/mL
CC(=O)c1ncn([C@@H]2CO[C@H](CO)[C@@H](O)[C@H]2O)n1 | - | - | Yellow fever virus | - | EC50 | >64 µg/mL
Nc1ccn([C@@H]2CS[C@H](CO)O2)c(=O)n1 | HFF | - | Cowpox virus | - | EC50 | >436 µM
CC1=CC2O[C@H]3C[C@H]4OC(=O)/C=C\C=C\C(=O)OCC/C(C)=C/C(=O)OCC2(CC1)[C@@]4(C)[C@]31CO1 | VERO | - | Junin virus | - | EC50 | 0.0012 µg/mL
CCCCCCCCCCCCNc1nc(=O)c2ncn(Cc3ccc(OC)cc3)c2c(=O)[nH]1 | HepG2.2.15 | - | Japanese encephalitis virus | - | EC50 | >500 µM
Cc1cn([C@H]2C=C[C@@H](CO)O2)c(=O)[nH]c1=O | HFF | - | Cowpox virus | - | EC50 | >446 µM

Neighbouring rows are from separate reports. ECn is the concentration giving n% inhibition of infection, replication or growth. Two numbers with a dash give a range or band. Inhibition is in % at the dose shown (toxicity tests: loss of growth or viability).